Reference: patent US20240122867A1, “CORONAL PROTEIN-COATED NANOPARTICLES AND USES THEREOF” (UNIVERSITY OF CENTRAL FLORIDA RESEARCH FOUNDATION, INC., priority 2021, published 2024)

B1: Apolipoprotein M (protein, UniProt Q9Z1R3 1-190, looked up)
Apolipoprotein M: MFHQVWAALLSLYGLLFNSMNQCPEHSQLTALGMDDTETPEPHLGLWYFIAGAASTTEELATFDPVDNIVFNMAAGSAPRQLQLRATIRTKSGVCVPRKWTYRLTEGKGNMELRTEGRPDMKTDLFSSSCPGGIMLKETGQGYQRFLLYNRSPHPPEKCVEEFQSLTSCLDFKAFLVTPRNQEACPLSSK
B2: Immunoglobulin heavy constant mu (protein, UniProt P01872 1-454, looked up)
Immunoglobulin heavy constant …: SQSFPNVFPLVSCESPLSDKNLVAMGCLARDFLPSTISFTWNYQNNTEVIQGIRTFPTLRTGGKYLATSQVLLSPKSILEGSDEYLVCKIHYGGKNRDLHVPIPAVAEMNPNVNVFVPPRDGFSGPAPRKSKLICEATNFTPKPITVSWLKDGKLVESGFTTDPVTIENKGSTPQTYKVISTLTISEIDWLNLNVYTCRVDHRGLTFLKNVSSTCAASPSTDILTFTIPPSFADIFLSKSANLTCLVSNLATYETLNISWASQSGEPLETKIKIMESHPNGTFSAKGVASVCVEDWNNRKEFVCTVTHRDLPSPQKKFISKPNEVHKHPPAVYLLPPAREQLNLRESATVTCLVKGFSPADISVQWLQRGQLLPQEKYVTSAPMPEPGAPGFYFTHSILTVTEEEWNSGETYTCVVGHEALPHLVTERTVDKSTGKPTLYNVSLIMSDTGGTCY
B3: Serum amyloid P-component (protein, UniProt P12246 21-224, looked up)
Serum amyloid P-component: QTDLKRKVFVFPRESETDHVKLIPHLEKPLQNFTLCFRTYSDLSRSQSLFSYSVKGRDNELLIYKEKVGEYSLYIGQSKVTVRGMEEYLSPVHLCTTWESSSGIVEFWVNGKPWVKKSLQREYTVKAPPSIVLGQEQDNYGGGFQRSQSFVGEFSDLYMWDYVLTPQDILFVYRDSPVNPNILNWQALNYEINGYVVIRPRVWD
B4: Band 3 anion transport protein (protein, UniProt P04919 1-929, looked up)
Band 3 anion transport protein: MGDMRDHEEVLEIPDRDSEEELENIIGQIAYRDLTIPVTEMQDPEALPTEQTATDYVPSSTSTPHPSSGQVYVELQELMMDQRNQELQWVEAAHWIGLEENLREDGVWGRPHLSYLTFWSLLELQKVFSKGTFLLGLAETSLAGVANHLLDCFIYEDQIRPQDREELLRALLLKRSHAEDLGNLEGVKPAVLTRSGGASEPLLPHQPSLETQLYCGQAEGGSEGPSTSGTLKIPPDSETTLVLVGRANFLEKPVLGFVRLKEAVPLEDLVLPEPVGFLLVLLGPEAPHVDYTQLGRAAATLMTERVFRITASMAHNREELLRSLESFLDCSLVLPPTDAPSEKALLNLVPVQKELLRRRYLPSPAKPDPNLYNTLDLNGGKGGPGDEDDPLRRTGRIFGGLIRDIRRRYPYYLSDITDALSPQVLAAVIFIYFAALSPAVTFGGLLGEKTRNLMGVSELLISTAVQGILFALLGAQPLLVLGFSGPLLVFEEAFFSFCESNNLEYIVGRAWIGFWLILLVMLVVAFEGSFLVQYISRYTQEIFSFLISLIFIYETFSKLIKIFQDYPLQQTYAPVVMKPKPQGPVPNTALFSLVLMAGTFLLAMTLRKFKNSTYFPGKLRRVIGDFGVPISILIMVLVDSFIKGTYTQKLSVPDGLKVSNSSARGWVIHPLGLYRLFPTWMMFASVLPALLVFILIFLESQITTLIVSKPERKMIKGSGFHLDLLLVVGMGGVAALFGMPWLSATTVRSVTHANALTVMGKASGPGAAAQIQEVKEQRISGLLVSVLVGLSILMEPILSRIPLAVLFGIFLYMGVTSLSGIQLFDRILLLFKPPKYHPDVPFVKRVKTWRMHLFTGIQIICLAVLWVVKSTPASLALPFVLILTVPLRRLILPLIFRELELQCLDGDDAKVTFDEENGLDEYDEVPMPV
B5: Alpha-1B-glycoprotein (protein, UniProt Q19LI2 19-512, looked up)
Alpha-1B-glycoprotein: NTLMLDSGSEPKLWAEPQSLLEPWANLTLVCAVDLPTKVFELIQNGWFLSQVRLETQVLSYRFSLGAITSNNSGIYRCRCGVEPPVDIHLPALNKWTMLSNAVEVTGKEPLPRPLAHADPVDWITPGGLPVYVMCQVAMRGVTYLLRQEGVDGVQKPDVQHKGTAGFLIYKPGNYSCSYLTHAAGEPSEPSDIVTIKMYASQAPPTLCLMGNYLMIYPQKTYETLACKAPRNAAEFQLRQGGKVLKIHGFSPTRDAILYYVNLKELDNPGPFTCRYRMHKYMHVWSEDSKPVELMWSDETLQAPVLTAEPSSRDLEPGSTVQLRCTAPVSGLRFGLQRQGKPELVVVQMLNSSGTEAVFELHNISTIDSGNYSCIYMEQAPPFSGSSSSEPVELRVNGPPPKPRLEALWKSTVHLGQEAIFRCHGHVPRVSMELVREGFKTPFAVASTRSTSAYLKLLFVGPQHAGNYSCRYTALPPFTFESGISDPVEVIVEG
B6: Gelsolin (protein, UniProt P13020 26-780, looked up)
Gelsolin: ATTSRGRAQERAPQSRVSEARPSTMVVEHPEFLKAGKEPGLQIWRVEKFDLVPVPPNLYGDFFTGDAYVILKTVQLRNGNLQYDLHYWLGNECSQDESGAAAIFTVQLDDYLNGRAVQHREVQGFESSTFSGYFKSGLKYKKGGVASGFKHVVPNEVVVQRLFQVKGRRVVRATEVPVSWDSFNNGDCFILDLGNNIYQWCGSGSNKFERLKATQVSKGIRDNERSGRAQVHVSEEGGEPEAMLQVLGPKPALPEGTEDTAKEDAANRRLAKLYKVSNGAGSMSVSLVADENPFAQGALRSEDCFILDHGRDGKIFVWKGKQANMEERKAALKTASDFISKMQYPRQTQVSVLPEGGETPLFKQFFKNWRDPDQTDGPGLGYLSSHIANVERVPFDAATLHTSTAMAAQHGMDDDGTGQKQIWRIEGSNKVPVDPATYGQFYGGDSYIILYNYRHGGRQGQIIYNWQGAQSTQDEVAASAILTAQLDEELGGTPVQSRVVQGKEPAHLMSLFGGKPMIIYKGGTSRDGGQTAPASIRLFQVRASSSGATRAVEVMPKSGALNSNDAFVLKTPSAAYLWVGAGASEAEKTGAQELLKVLRSQHVQVEEGSEPDAFWEALGGKTAYRTSPRLKDKKMDAHPPRLFACSNRIGRFVIEEVPGELMQEDLATDDVMLLDTWDQVFVWVGKDSQEEEKTEALTSAKRYIETDPANRDRRTPITVVRQGFEPPSFVGWFLGWDDNYWSVDPLDRALAELAA
B7: Inter-alpha-trypsin inhibitor heavy chain H1 (protein, UniProt Q61702 32-668, looked up)
Inter-alpha-trypsin inhibitor …: PRGSEKRHAVDTSVNGVSIKSLKVNCKVTSRFAHYVITSQVVNNADKAREVAFDVEIPKTAFISDFAITSDGKAFIGDIKDKVTAWKQYRKAAVLGESAGLVRASGRNMEQFTIHITVGAQSKATFRLTYEEVLKRRLMQYDITIKVRPKQLVQHFEIDVDIFEPQGISKLDAQASFLSEELAAQTIKKSFSGKKGHVLFRPTVSQQQSCPTCSTSLLNGEFKVTYDVNRDKLCDLLVANNYFTHFFAPKNLTNMSKNLVFVIDISGSMEGQKVRQTKEALLKILEDMRPVDNFDLVLFGSKVQSWKGSLVPASNANLQAAQDFVRRFSLAGATNLNGGLLRGIEILNKAQGSHPELSSPASILIMLTDGEPTEGETDRSQILKNVRNAIRGRFPLYNLGFGHDLDFSFLEVMSTENNGWAQRIYEDHDATQQLQGFYNQVANPLLTDVELQYPQDAVLALTQHRHKQYYDGSEIVVAGRIANHKLNTFKADVRARGEKQEFRATCLVDEEEMKKLLRERGHVLENHVERLWAYLTIQELLAKRMKTEGEERANLSSQVLKMSLDYHFVTPLTSLTIRGLTDEDGLEPTIDKPLEDSQPLEMVGPRRTFVLSAIQPSPTAHPIDSKLPLRVTGVDTD
B8: Cluster of Keratin, type II cytoskeletal 2 epidermal (protein, UniProt Q3TTY5 1-707, looked up)
Keratin, type II cytoskeletal …: MSCQISCRSRRGGGGGGGGGFRGFSSGSAVVSGGSRRSNTSFSCISRHGGGRGGSGGGGFGSQSLVGLGGYKSISSSVAGNSGGYGGSSFGGSSGFGGGRGFGGGQGFGGSGGFGGGSGFGGGQGFGGGSRFGGGSGFGGGGFGGGSFGGGRFGGGPGGFGGPGGFPGGGIHEVSVNQSLLQPLDVKVDPEIQNVKSQEREQIKTLNNKFASFIDKVRFLEQQNQVLRTKWELLQQLDVGSRTTNLDPIFQAYIGMLKKQVDRLSAERTSQESELNNMQDLVEDFKKKYEDEINKRTSAENDFVTIKKDVDSCYMDKTELQARLDILAQEVNFLRTLYDAELSQLQQDVTDTNVILSMDNNRNLDLDSIIAEVQNQYEMIAHKSKAESEELYHSKYEELQVTAVKHGDSLKEIKMEISELNRTIQRLQGEISHVKKQCKGVQDSIADAEQRGEHAIKDARGKLTDLEEALQQCREDLARLLRDYQELMNTKLSLDVEIATYRKLLEGEECRMSGDFSDNVSVSITSSTISSSVASKTGFGSGGQSSGGRGSYGGRGGGGGGGSTYGSGGRSSGSRGSGSGSGGGGYSSGGGSRGGSGGGYGSGGGSRGGSGGGYGSGGGSGSGGGYSSGGGSRGGSGGGGVSSGGGSRGGSSSGGGSRGGSSSGGGGYSSGGGSRGGSSSGGAGSSSEKGGSGSGEGCGSGVTFSFR
B9: Antithrombin-III (protein, UniProt P32261 33-465, looked up)
Antithrombin-III: HGNPVDDICIAKPRDIPVNPLCIYRSPGKKATEEDGSEQKVPEATNRRVWELSKANSRFATNFYQHLADSKNDNDNIFLSPLSISTAFAMTKLGACNDTLKQLMEVFKFDTISEKTSDQIHFFFAKLNCRLYRKANKSSDLVSANRLFGDKSLTFNESYQDVSEVVYGAKLQPLDFKENPEQSRVTINNWVANKTEGRIKDVIPQGAINELTALVLVNTIYFKGLWKSKFSPENTRKEPFYKVDGQSCPVPMMYQEGKFKYRRVAEGTQVLELPFKGDDITMVLILPKPEKSLAKVEQELTPELLQEWLDELSETMLVVHMPRFRTEDGFSLKEQLQDMGLIDLFSPEKSQLPGIVAGGRDDLYVSDAFHKAFLEVNEEGSEAAASTSVVITGRSLNPNRVTFKANRPFLVLIREVALNTIIFMGRVANPCVN

System: coronal proteins on NPs
Parameters: species or system mouse
Conditions: HBPE-NPs incubated 1 h with IAV day 5 (V5) mouse sera, 20:1 NP:sera, centrifuged and washed

| Molecule | V5 Sera_Nanoparticles Quantitative Value (Normalized Total Spectra) |
| --- | --- |
| B1 | 10.879 |
| B2 | 11.967 |
| B3 | 10.879 |
| B4 | 13.055 |
| B5 | 9.7913 |
| B6 | 9.7913 |
| B7 | 10.879 |
| B8 | 13.055 |
| B9 | 9.7913 |

Same assay, conditions: IAV day 5 (V5) mouse sera alone, no NPs (sera-only control)

| Molecule | V5 Sera Alone (Control) Quantitative Value (Normalized Total Spectra) |
| --- | --- |
| B1 | 6.4766 |
| B2 | 23.131 |
| B3 | 4.6261 |
| B4 | 2.7757 |
| B5 | 6.4766 |
| B6 | 16.654 |
| B7 | 12.953 |
| B8 | 36.084 |
| B9 | 11.103 |
